The data set relates to HIV-1 lai strain. Briefly: Anti-HIV test on PBMC, viral replication measured by Reverse Transcriptase (RT) activity in culture supernatants. It counts as cell-based. To be noted: therapeutical index TI50=(CC50/IC50). On the procedure: The object of the screening is to evaluate the antiretroviral activity of the compounds of the present invention and of the Comparative Compounds on the HIV-1 lai strain cultivated on peripheral blood mononucleated cells (PBMC). For this purpose, the test compounds were incubated for seven days (duration of the anti-HIV test) with the PBMC in exponential phase of growth. The ability of the compounds to inhibit the viral replication was then measured in the culture supernatants either by an assay of the “Reverse Transcriptase” (RT) activity with the kit RetroSys TR (INNOVAGEN) or by an assay of the protein P24 with the kit Innotest HIV Antigen mAb Screening (IMMUNOGENETICS). The concentrations of the test compound causing 50 and 90% inhibition of the viral replication were determined. It concerns inhibition concentrations IC50 and IC90, respectively. The PBMC were isolated as described in Ulmer and col., Immunobiology, 166(3), 238-250 (1984) from a healthy donor by a Ficoll gradient (Nicomed Pharma AS). The PBMC were activated with phytohemagglutinine for three days and then cultivated in a 96-well plate, in a base medium (RPMI) supplemented with recombinant human Interleukin-2. Throughout the culture, the cells were maintained at 37° C., in an atmosphere saturated in humidity, and under 5% CO2. The PBMC were pre-treated for one hour in the presence of the test compounds at various concentrations, and then infected with 100 TCID50 of HIV-1-Lai [S. Wain-Hobson and col., Science 17, 252 (5008): 961-965 (1991)]. Three days after the infection with HIV-1, the half of the culture medium was changed and, at the day 7, the supernatants were taken and frozen at −20° C. Then, the viral replication was measured: a) by assaying the “Reverse Transcriptase” (RT) activity in the culture supernatants by means of the kit RetroSys (Innovagen). The RT contained in the supernatant synthesizes, in the presence of bromodeoxyuridine triphosphate (BrdUTP), a complementary strand DNA to a matrix immobilized on the bottom of the wells of a 96-well plate. The incorporation of BrdU is quantified by the fixation of an antibody anti-BrdU conjugated to the alkaline phosphatase. The activity of the attached alkaline phosphatase, measured by colorimetry, is proportional to the RT activity in the culture supernatant. The results described below are the results of at least two experiments which are distinct and carried out in triplicate.

On to `CCc1c(Cc2cc(C)cc(C)c2)n(COCCN(O)C(N)=O)c(=O)[nH]c1=O` [Comparative 1, 1-(2-N^1-hydroxyureidoethyloxymethyl)-6-(3,5-dimethylbenzyl)-5-ethyluracil], for which the TI50 is listed as >1.1 × 10^6. The same measure for `CCc1c(Cc2cc(C)cc(C)c2)n(COCCCCN(O)C(N)=O)c(=O)[nH]c1=O` [Comparative 2, 1-(4-N^1-hydroxyureidobutyloxymethyl)-6-(3,5-dimethylbenzyl)-5-ethyluracil]: >0.25 × 10^5; for `CCc1c(Cc2ccccc2)n(COCCN(O)C(N)=O)c(=O)[nH]c1=O` [Comparative 3, 1-(2-N^1-hydroxyureidoethyloxymethyl)-6-benzyl-5-ethyluracile]: >3.5 × 10^3.

On to `CCOCn1c(Cc2ccccc2)c(C(C)C)c(=O)[nH]c1=O` [Comparative 4, 1-ethyloxymethyl-6-benzyl-5-isopropyluracil, reference compound], for which the TI50 is listed as >1.5 × 10^4. The same measure for `CCc1c(Cc2cc(C)cc(C)c2)n(COCCCNC(=O)NO)c(=O)[nH]c1=O` [Compound 1, 1-(3-N^3-hydroxyureidopropyloxymethyl)-6-(3,5-dimethylbenzyl)-5-ethyl-uracil]: 1.13 × 10^5.

On to `CCc1c(Cc2cc(C)cc(C)c2)n(COCCCN(O)C(N)=O)c(=O)[nH]c1=O` [Compound 2, 1-(3-N1-hydroxyureidopropyloxymethyl)-6-(3,5-dimethylbenzyl)-5-ethyl-uracil], for which the TI50 was >10^6. With `Cc1cc(C)cc(Cc2c(C(C)C)c(=O)[nH]c(=O)n2COCCCN(O)C(N)=O)c1` [Compound 3, 1-(3-N^1-hydroxyureidopropyloxymethyl)-6-(3,5-dimethylbenzyl)-5-isopropyluracil], the TI50 was 7 × 10^9. The figure for `CC(=O)ON(CCCOCn1c(Cc2cc(C)cc(C)c2)c(C(C)C)c(=O)[nH]c1=O)C(N)=O` [Compound 4, 1-(3-N^1-acetoxyureidopropyloxymethyl)-6-(3,5-dimethylbenzyl)-5-isopropyluracile] is 10^6; for `Cc1cc(C)cc(Cc2c(C(C)C)c(=O)[nH]c(=O)n2COCCCN(OC(=O)C(C)(C)C)C(N)=O)c1` [Compound 5, 1-(3-N^1-pivaloyloxyureidopropyloxymethyl)-6-(3,5-dimethylbenzyl)-5-isopropyluracil] it is 6.5 × 10^10.

These data come from US6911450B1, “Pyrimidine acyclonucleoside derivatives, preparation method and use thereof” (Universite de Geneve, priority 2001, dated 2005).
